In article PMC7298118:
For part of these data: Construct, isoform or probe ends are uncertain for at least one entry.

Key:
[1] = target: T1, His6-Fur (Klebsiella pneumoniae NTUH-K2044) (UniProt A0ACD7TZA3); assay: DNase I footprinting; settings: His6-Fur 0, 0.5, 1 ug; recombinant protein; residues 1-150; protein details: His6 (pET-28a); label: FAM (M13F-47 primer); probe letters rebuilt from the primers and the genome; part of a longer molecule
[2] = target: T1, His6-Fur (Klebsiella pneumoniae NTUH-K2044); assay: EMSA; settings: 500 uM MnCl2, 5 mM MgCl2; recombinant protein; residues 1-150; protein details: His6 (pET-28a); label: none (SYBR Green stain); probe letters rebuilt from the primers and the genome

| Sequence | binding result [1] | binding result [2] |
| --- | --- | --- |
| AGTGGTAAAACTGCGGTACGGCGACATAAAGAAGAAGCTGTCCGGCGACAGGGTCCGGGTCGGTTTCTTTACATCCTCAGCCAGTGACGTTTCCATATCATCCTCCAAAAACGATAAAGATATTAAGAATAATTATCATTTATATTTTGGTTGGCTAACCTAAAAGGTATTGCCCGCCATGTCAACCGCGTTACGTCATGGCGCCGCCACTTTGGCTTGCATCCTGCTGACACAAAGTTGAAAATGAGACGCATTTATCACCTTTCAA (double strand) [entC promoter, Fur footprint probe] | binds | – |
| ACCTCCATCGCCTCCAGCGGCGCGGCATAGCGGGCGGAACGCTGCTTTTCCGGGCGAGAGAACGCTTCCCAGCGCTCGGGGATATAGAGCTCGGAAGGCTGACAGGTGTCGAACGGGATAGCCCCGACCATCACCGGCTTGCGGATCCCCGCCGTCCGGGCCTCGGCAAAGGCGGCCGCCATCTGCTGCTGGAACTCGCCGTCCAGCGCATCGCCGCCAACGGCGGGCTGTGAGAAGCGACGGAAGCGGCCTGAAGTGGTAAAACTGCGGTACGGCGACATAAAGAAGAAGCTGTCCGGCGACAGGGTCCGGGTCGGTTTCTTTACATCCTCAGCCAGTGACGTTTCCATATCATCCTCCAAAAACGATAAAGATATTAAGAATAATTATCATTTATATTTTGGTTGGCTAACCTAAAAGGTATTGCCCGCCATGTCAACCGCGTTACGTCATGGCGCCGCCACTTTGGCTTGCATCCTGCTGACACAAAGTTGAAAATGAGACGCATTTATCACCTTTCAAATCAGGATGCGATGACGTGAACTTCTTTTCTTTCTGCCGCCGCGGTGCGCTGACCGGCATGCTGTTGCTTTTAGGAATTACCTCAGCCCAGGCGGCGGACTGGCCGCGCCAGGTCACCGACAGCTACGGGACGCATACC (double strand) [entC promoter, Fur EMSA fragment] | – | binds |
| CATCATTCATCCCACAAGCCGATAAAAAAGTATTGTGGCATTAAAGCGTTAAGCCTTCCACCCCCACCGCAAAGGGATAAGCGAGCAAGCCAGCAACCGCTAACGTGGGTTTCATTTGAAGTAAGGAAATTCTGAAAGTAAAAGAATACTGGGCGCGTAACCATAGCATCTATGGGCACTTTTTGTTTTTAATTCGGTCACACTACCGGTTCTTGACTTTACTTTAAGAGTTTTCCTGGCAAATTATATGCATAGATGCGGAATAGTTTAATGGAGCTAATGGGTTCTTTCTAAACCTACTATTATTATCGCCCGCAAGGACTGCTTCGCACAGCCAGTGCGAAGTGTATATCGTTACGTGTTGATTGAGGATGGGTCATGTCAACGATGATTATGGATTTGTGCAGCTATACCCGGTTGGGATTGACGGGATATCTGACCAGTCGGGGAATTAAAAAACAGGAAATCGTTGAGGTCAACAGTGCTGCGGATCTGCAGAAACACTGTACGTCGTGTTGCCCGGCGGTGGTGTTTCTGAATGAAGACTGTTTCGTGCATGATGATGAAAGTAATGGCATTATTCGCCAGATCATTACGCAAAACCCGGCGACGCTGTTTGTTATCTT (double strand) [rcsA promoter, Fur EMSA fragment] | – | binds |
